Laboratory results from publication PMC5330840.

Columns and labels:
Assay in all cases: purified protein
O=P(O)(O)O = conditions: apparent; acetate-forming direction; saturating acetyl-CoA and ADP
CC(=O)O = conditions: apparent; acetyl-CoA forming direction; saturating CoA and ATP
[1] = tested on: CC(=O)SCCNC(=O)CCNC(=O)[C@H](O)C(C)(C)COP(=O)(O)OP(=O)(O)OC[C@H]1O[C@@H](n2cnc3c(N)ncnc32)[C@H](O)[C@@H]1OP(=O)(O)O; conditions: apparent; acetate-forming direction; saturating ADP and Pi
[2] = tested on: Nc1ncnc2c1ncn2[C@@H]1O[C@H](COP(=O)(O)OP(=O)(O)O)[C@@H](O)[C@H]1O; conditions: apparent; acetate-forming direction; saturating acetyl-CoA and Pi
[3] = tested on: CC(C)(COP(=O)(O)OP(=O)(O)OC[C@H]1O[C@@H](n2cnc3c(N)ncnc32)[C@H](O)[C@@H]1OP(=O)(O)O)[C@@H](O)C(=O)NCCC(=O)NCCS; conditions: apparent; acetyl-CoA forming direction; saturating acetate and ATP
[4] = tested on: Nc1ncnc2c1ncn2[C@@H]1O[C@H](COP(=O)(O)OP(=O)(O)OP(=O)(O)O)[C@@H](O)[C@H]1O; conditions: apparent; acetyl-CoA forming direction; saturating acetate and CoA

Row | Substance | Km (O=P(O)(O)O) [µM] | kcat (O=P(O)(O)O) [s⁻¹] | kcat/Km (O=P(O)(O)O) [M⁻¹ s⁻¹] | Km (CC(=O)O) [µM] | kcat (CC(=O)O) [s⁻¹] | kcat/Km (CC(=O)O) [M⁻¹ s⁻¹] | Km [1] [µM] | kcat [1] [s⁻¹] | kcat/Km [1] [M⁻¹ s⁻¹] | Km [2] [µM] | kcat [2] [s⁻¹] | kcat/Km [2] [M⁻¹ s⁻¹] | Km [3] [µM] | kcat [3] [s⁻¹] | kcat/Km [3] [M⁻¹ s⁻¹] | Km [4] [µM] | kcat [4] [s⁻¹] | kcat/Km [4] [M⁻¹ s⁻¹]
1 | Entamoeba histolytica ADP-forming acetyl-CoA synthetase (EhACD) (Entamoeba histolytica HM-1:IMSS; H533R) | 150 ± 30 | 14 | 95000 | – | – | – | – | – | – | – | – | – | – | – | – | – | – | –
2 | Entamoeba histolytica ADP-forming acetyl-CoA synthetase (EhACD) (Entamoeba histolytica HM-1:IMSS; D674E) | – | – | – | 3900 ± 300 | 50 | 13000 | 22 ± 2 | 16 | 704000 | 1440 ± 80 | 25 | 17000 | – | – | – | – | – | –
3 | Entamoeba histolytica ADP-forming acetyl-CoA synthetase (EhACD) (Entamoeba histolytica HM-1:IMSS; H533A) | 750 ± 100 | 2.3 | 3100 | 680 ± 100 | 3.3 | 4800 | 10 ± 1 | 2.7 | 266000 | 410 ± 30 | 2.8 | 6900 | 70 ± 10 | 4.2 | 60000 | 2200 ± 100 | 3.3 | 1600
